Experimental data: PubChem BioAssay AID1259414 (Drosophila RNAi Screening Center, 2018)
In all, the deposit lists about 24,000 reagents; this is an unselected part of those with a known target gene and a result. Over the whole deposit, about 1,210 (5%) are marked active. 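Inactive calls also include excluded dsRNAs with several or no targets, genes unexpressed in JW18, and well A1, regardless of score.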 Reagents against one gene are numbered here.

- Screen: 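Host factors increasing or decreasing Wolbachia levels in cultured fly cells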 (primary screen)
- System: Drosophila JW18 cells infected with Wolbachia
- Reagent: long dsRNA against Drosophila genes, 0.25 µg dsRNA per well of a 384-well plate
- Timing: 5 days
- Treatment: cells persistently infected with Wolbachia before knock-down; no added drug
- Read-out: 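Automated imaging of bacterial rRNA staining divided by host cell count, reported as plate-normalised robust z-score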
- Reading the numbers: Wolbachia per cell robust z: higher = more Wolbachia per host cell than the plate typical
- Rule for the call: 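Hit when robust z is 1.5 or more, or -1.5 or less, in at least two of three replicates; excludes dsRNAs with several or no targets, genes not expressed in JW18 and well A1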

target | reagent | Wolbachia per cell robust z, rep 1 | Wolbachia per cell robust z, rep 2 | Wolbachia per cell robust z, rep 3 | Call
NELF-B | 1 | 0.573 | -7.1 | 0.683 | inactive
NELF-B | 2 | 2.27 | 0.65 | 1.71 | active
CG11112 | 1 | -1.52 | 0.334 | 1.42 | inactive
CG11112 | 2 | -0.693 | 0.00889 | -1.01 | inactive
CG5768 | 1 | -0.0166 | -4.23 | -0.486 | inactive
Paris | 1 | -0.387 | 0.629 | 0.889 | inactive
Paris | 2 | -1.34 | 0.53 | -0.194 | inactive
CG11404 | 1 | 0.0572 | 0.0452 | 0.487 | inactive
CG11404 | 2 | 0.123 | -0.769 | -1.21 | inactive
CaMKII | 1 | -0.248 | -0.585 | 0.208 | inactive
CaMKII | 2 | -0.695 | 0.646 | 0.477 | inactive
CG9926 | 1 | 0.625 | 0.26 | -0.139 | inactive
CG9926 | 2 | 0.993 | -0.243 | 0.231 | inactive
msl-1 | 1 | 2.43 | 1.61 | 1.43 | active
CG12069 | 1 | 0.348 | 0.0183 | 1.57 | inactive
CG12069 | 2 | 0.654 | -0.21 | 0.672 | inactive
CG12069 | 3 | -1.58 | -0.517 | -0.312 | inactive
slim | 1 | 0.708 | -1 | 1.15 | inactive
sti | 1 | 1.09 | 3.26 | 2.75 | active
sti | 2 | 2.36 | 2.71 | 2.94 | active
Karybeta3 | 1 | 0.0379 | -1.13 | 0.467 | inactive
Elp1 | 1 | 0.417 | 0.48 | 0.0926 | inactive
Ant2 | 1 | 0.511 | 0.59 | 1.4 | inactive
Ant2 | 2 | -2.92 | -1.19 | -0.355 | inactive
Amun | 1 | -4.98 | -0.337 | -0.00294 | inactive
Amun | 2 | -0.352 | -0.29 | -1.9 | inactive
Dph4 | 1 | -4.87 | -1.03 | 0.308 | inactive
mwh | 1 | 1.05 | 1.4 | 1 | inactive
mwh | 2 | -3.32 | 1.52 | -3.28 | active
mwh | 3 | -0.808 | 1.49 | 1.4 | inactive
